Experimental data: PubChem BioAssay AID1533 (PCMD, 2009)
The list shows a part of the results, in another mix than the full data. Activity calls are given as the source filed them. No stated cut-off is given here; in the data, active means inhibition mostly above about 34% (no sharp cut-off); inconclusive means no clear call, values can overlap the other calls; inactive means mostly below about 22%.

Protein sequences, listed by entry. Tags and fused reporters are not part of them.
UniProt P9WH09, whole entry, looked up: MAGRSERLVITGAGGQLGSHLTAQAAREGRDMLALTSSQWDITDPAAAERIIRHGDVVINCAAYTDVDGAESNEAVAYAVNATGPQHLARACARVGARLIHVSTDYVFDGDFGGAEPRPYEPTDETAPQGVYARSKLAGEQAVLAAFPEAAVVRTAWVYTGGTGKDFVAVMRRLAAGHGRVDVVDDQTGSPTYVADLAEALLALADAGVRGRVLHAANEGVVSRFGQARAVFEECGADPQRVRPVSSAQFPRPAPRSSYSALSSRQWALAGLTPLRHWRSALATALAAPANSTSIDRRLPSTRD
UniProt P9WH11, whole entry, looked up: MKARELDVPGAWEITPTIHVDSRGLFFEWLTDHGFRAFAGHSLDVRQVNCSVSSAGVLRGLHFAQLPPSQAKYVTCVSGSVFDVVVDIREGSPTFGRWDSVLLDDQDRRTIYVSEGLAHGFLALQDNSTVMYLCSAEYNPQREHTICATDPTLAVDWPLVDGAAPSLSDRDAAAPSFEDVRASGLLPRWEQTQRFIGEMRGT

What follows are compounds tested against dTDP-4-dehydrorhamnose reductase (Mycobacterium tuberculosis (strain ATCC 25618 / H37Rv)) + dTDP-4-dehydrorhamnose 3,5-epimerase (Mycobacterium tuberculosis (strain ATCC 25618 / H37Rv)) (UniProt P9WH09+P9WH11) (assay: M. tuberculosis RmlC/RmlD coupled enzyme inhibitors, primary screen, biochemical, compound mixtures, 384-well, from 1536-well plates (AID 1533)). Conditions: RmlC+RmlD coupled enzyme assay, percent inhibition; primary screen in compound mixtures; at 3.6 µM; active compounds read high.

| Compound | inhibition |
| --- | --- |
| COP1(=S)c2c(C)nn(CCC#N)c2N=C(c2ccc(F)cc2)N1C (stereo not drawn) | inactive: -4.66% |
| CP(=O)(Nc1ccc(SC(F)(F)F)cc1)Oc1ccc(Cl)cc1 (stereo not drawn) | inactive: -14.7% |
| Cc1cccc(C)c1OP(C)(=O)Nc1ccc(SC(F)(F)F)cc1 (stereo not drawn) | inactive: -14.8% |
| CP(=O)(Oc1ccccc1)OC(c1ccccc1)C(F)(F)F (stereo not drawn) | inactive: -8.96% |
| O=C(COc1ccccc1)OC1CN2CCC1CC2 (stereo not drawn) | inactive: 10.7% |
| CCc1ccc(OP(C)(=O)N2CCN(c3ccc([N+](=O)[O-])cc3)CC2)cc1 (stereo not drawn) | inactive: -10.1% |
| Cc1cc(C)cc(OP(C)(=O)Nc2ccc(SC(F)(F)F)cc2)c1 (stereo not drawn) | inactive: 20.1% |
| CCOC(=O)c1ccc(NC(=O)C(C)(CCl)SC)cc1 (stereo not drawn) | inactive: -2.57% |
| CCOC(=O)c1ccc(NP(C)(=O)Oc2ccc(OC)cc2)cc1 (stereo not drawn) | inactive: 14.2% |
| CCOP(C)(=S)SCC(=O)NC(C)C(=O)O (stereo not drawn) | inactive: -4.24% |
| CP(=O)(Nc1ccccn1)Oc1ccc(Cl)cc1 (stereo not drawn) | inactive: 19.1% |
| CCOC(=O)Nc1ccc([As](=O)(O)O)c(O)c1 | inactive: 6.7% |
| Cc1cc(SC(NC(=O)c2ccccc2)C(Cl)(Cl)Cl)nc(C(C)C)n1 (stereo not drawn) | inactive: 2.27% |
| CCOC(=O)Nc1cccc([As](=O)(O)O)c1 | inactive: 23% |
| CP(=S)(Nn1cnnc1)Oc1ccccc1 (stereo not drawn) | inactive: 11.7% |
| CP(=O)(Nc1ccccc1Br)Oc1ccccc1 (stereo not drawn) | inactive: 6.53% |
| O=[N+]([O-])c1ccc(Nc2ccc(Oc3ccc([N+](=O)[O-])cc3[N+](=O)[O-])cc2)c([N+](=O)[O-])c1 | inactive: -6.28% |
| Cc1cc(SC(NC=O)C(Cl)(Cl)Cl)ncn1 (stereo not drawn) | inactive: 5.33% |
| O=P(Nc1ccccn1)(c1cccc2ccccc12)c1cccc2ccccc12 | inactive: -5.01% |
| COc1ccccc1OP(C)(=O)Nc1ccccc1 (stereo not drawn) | inactive: 0.83% |
| C[As](=O)(O)c1cccc(C(=O)O)c1 | inactive: -0.84% |
| O=[As](O)(c1ccc(O)cc1)c1ccccc1O | inactive: 11.2% |
| O=[N+]([O-])c1ccc2c(c1)C=Nc1ccccc1O2 | inactive: 11.5% |
| Cc1ccc2nc3c(c(C)c2c1)CC(C(Cl)Cl)S3 (stereo not drawn) | inactive: 5.68% |
| Cc1ccc(OP(=O)(Nc2ccc([N+](=O)[O-])cn2)Oc2ccc(C)cc2)cc1 | inactive: 90.7% |
| CC(C)(C)c1ccc(OP(C)(=O)Nc2ccc(SC(F)(F)F)cc2)cc1 (stereo not drawn) | inactive: 1.31% |
| Cc1cccc(C)c1OP(C)(N)=O (stereo not drawn) | inactive: 5.39% |
| COc1ccccc1OP(C)(=O)Nc1ccc(C)cc1 (stereo not drawn) | inactive: -1.07% |
